Data taken from patent US5532231A, “Antibacterial agent” (priority 1994, dated 1996).

Experiment: Adherence to polystyrene in the absence of E. coli ESS
Conditions: after 22 hours, ethanol extraction

| SMILES | amount still bound to the polystyrene [µg] |
| --- | --- |
| CCCC1OC(=O)C(C)CC(C)CCCCC(=O)CCCC(CC)C=CC=C(COC)CCC(O)C(O)CC(O)CNC1=O (centres unmarked) [TA, reference compound] | 1 |
| CCCC1OC(=O)C(C)CC(C)CCCCC(=O)CCCC(CC)CCCC(COC)CCC(O)C(O)CC(O)CNC1=O (centres unmarked) [Focusin] | 8 |
